Measured values from several laboratories, pooled; numbers as filed in NIAID ChemDB.

All rows: growth or infection tests

Two numbers with a dash give a range or band.

| compound | method | changes | read-out | strain or isolate | species | tested at | result |
|---|---|---|---|---|---|---|---|
| COc1c(NC(=O)c2ccc(NC(=O)c3ccc(NC(=O)[C@H](Cc4cn[nH]n4)NC(=O)c4ccc(NC(=O)/C(C)=C/c5ccc(O)cc5)cc4)cc3C(F)(F)F)c(OC)c2O)ccc(C(=O)O)c1O | resazurin |  | MIC | 130.21 | Mycobacterium luteus |  | 4 µg/mL |
| FC(F)(F)Oc1ccc(CCNc2nc(C3CC3)nc3ccccc23)cc1 | luminescence |  | MIC50 |  | Mycobacterium bovis BCG |  | 4.7 µM |
| Cc1c(OCC(F)(F)F)ccnc1CSc1nc2ccccc2[nH]1 | resazurin |  | MIC90 | 2005-0484 | Mycobacterium massiliense |  | >100 µM |
| CCCCCCCC(CCCCCCC)OC(=O)NC(CCC(=O)O)(CCC(=O)O)CCC(=O)O |  |  | MIC | ATCC 927 | Mycobacterium marinum |  | 420 µg/mL |
| CC(=O)NC[C@H]1CN(c2ccc3c(c2)SCc2nccn2-3)C(=O)O1 |  |  | MIC |  | Mycoplasma pneumoniae |  | 4 µg/mL |
| CO[C@H]1/C=C/O[C@@]2(C)Oc3c(C)c(O)c4c(O)c(c5c(c4c3C2=O)NC2(CCN(CC(C)C)CC2)N=5)=NC(=O)/C(C)=C\C=C\[C@H](C)[C@H](O)[C@@H](C)[C@@H](O)[C@@H](C)[C@H](OC(C)=O)[C@@H]1C |  |  | MIC | N-961 (HIV+) | Mycobacterium avium complex |  | 0.25 µg/mL |
| FC(F)(F)c1cccc(-c2ccc(Nc3ncnc4ccccc34)cc2)c1 | luminescence |  | MIC50 |  | Mycobacterium bovis BCG |  | >50 µM |
| CC(=S)NC[C@H]1CN(c2ccc3c(c2)OCc2nccn2-3)C(=O)O1 |  |  | MIC |  | Mycoplasma pneumoniae |  | 2 µg/mL |
| Nc1ccc(S(=O)(=O)c2ccc(N)cc2)cc1 |  |  | MIC | 1408 | Mycobacterium avium complex |  | 64 µg/mL |
| CC(=O)NC[C@H]1CN(c2ccc3c(c2)OCC2CCCN32)C(=O)O1 |  |  | MIC |  | Mycoplasma pneumoniae |  | >32 µg/mL |
| C[C@@H]1CN(c2c(F)c(N)c3c(=O)c(C(=O)O)cn(C4CC4)c3c2F)C[C@H](C)N1 |  |  | MIC90 | 20 strains | Mycoplasma hominis |  | ≤0.01 µg/mL |
| CO[C@@]1(NC(=O)Cc2ccccc2)C(=O)N2C(C(=O)[O-])=C(CSc3nnc(C)s3)CSC21 |  |  | MIC | 914-8 | Mycobacterium fortuitum |  | 12.5 µg/mL |
| Cc1ccc(CCNc2ncnc3ccccc23)cc1 | luminescence |  | MIC50 |  | Mycobacterium bovis BCG |  | >10 µM |
| CCC(=O)NC[C@H]1CN(c2ccc3c(c2)OCc2nccn2-3)C(=O)O1 |  |  | MIC |  | Mycoplasma pneumoniae |  | 4 µg/mL |
| CC(C)(C)c1ccc(CCNc2ncnc3ccsc23)cc1 | luminescence |  | MIC50 |  | Mycobacterium bovis BCG |  | >20 µM |
| CO[C@H]1/C=C/O[C@@]2(C)Oc3c(C)c(O)c4c(O)c(c(/C=N/N5CCN(C6CCCC6)CC5)c(O)c4c3C2=O)NC(=O)/C(C)=C\C=C\[C@H](C)[C@H](O)[C@@H](C)[C@@H](O)[C@@H](C)[C@H](OC(C)=O)[C@@H]1C |  |  | MIC | AMT | Mycobacterium avium intracellulare |  | 0.5 µg/mL |
| COc1c(NC(=O)c2ccc(NC(=O)c3ccc(NC(=O)[C@H](Cc4cn[nH]n4)NC(=O)c4ccc(NC(=O)/C(C)=C/c5ccc(O)cc5)cc4)cc3F)c(OC)c2O)ccc(C(=O)O)c1O | resazurin |  | MIC | 130.21 | Mycobacterium luteus |  | 0.031 µg/mL |
| Oc1cc(OCc2ccccc2)ccc1-c1n[nH]c(C(F)(F)F)c1-c1ccccc1 | visual reading |  | MIC |  | Mycobacterium marinum |  | 25 µg/mL |
| Fc1ccc(N2CCN(c3ccc(Nc4ncnc5ccsc45)cc3)CC2)cc1 | luminescence |  | MIC50 |  | Mycobacterium bovis BCG |  | >10 µM |
| CO[C@@]1(NC(=O)CCCC(N)C(=O)O)C(=O)N2C(C(=O)O)=C(COC(N)=O)CSC21 |  |  | MIC | 1059 | Mycobacterium fortuitum |  | >100 µg/mL |
| CCCCCCCCCCCCc1ccc(NC(=O)C2=CCN(C)[C@@H]([C@H](O[C@@H]3O[C@H](CN)[C@@H](O)[C@H]3O)[C@H]3O[C@@H](n4ccc(=O)[nH]c4=O)[C@H](O)[C@@H]3O)C(=O)N2C)cc1 |  |  | MIC | ATCC 43015 | Mycobacterium avium paratuberculosis |  | 0.39 µg/mL |
| CCCCCCCCCCCCCCCCCCCOC(=O)NC(CCC(=O)O)(CCC(=O)O)CCC(=O)O |  |  | MIC | ATCC 927 | Mycobacterium marinum |  | 45 µg/mL |
| NCCS | broth dilution / visual reading |  | MIC100 | DSM44196 | Mycobacterium abscessus |  | 62.5–125 µg/mL |
| CCCCCCCCCCCCCCCCCCCCCCCCCCCCCCOC(=O)NC(C)(CCC(=O)O)CCC(=O)O |  |  | MIC | AAy-P-1 | Mycobacterium abscessus |  | 144 µg/mL |
| FC(F)(F)Oc1ccc(Oc2ccc(Nc3ncnc4ccoc34)cc2)cc1 | luminescence |  | MIC50 |  | Mycobacterium bovis BCG |  | >20 µM |
| O=C(NCc1ccc(N2CCOCC2)nc1)c1c(Cl)nc2ccccn12 | fluorescence |  | MIC50 |  | Mycobacterium ulcerans |  | 1–10 µg/mL |
| Fc1ccc2c(Nc3ccc(OC4CCN(c5ccc(C(F)(F)F)cc5)CC4)cc3)ncnc2c1 | luminescence |  | MIC50 |  | Mycobacterium bovis BCG |  | >10 µM |
| CCc1nc2ccc(Cl)cn2c1C(=O)NCc1ccc(N2CCC(c3ccc(OC(F)(F)F)cc3)CC2)cc1 | broth dilution |  | MIC50 |  | Mycobacterium bovis BCG |  | 0.0016 µM |
| Fc1ccc2c(Nc3ccc(Oc4ccc(OC(F)(F)F)cc4)cc3)ncnc2c1 | luminescence |  | MIC50 |  | Mycobacterium bovis BCG |  | >20 µM |
| COc1c(NC(=O)c2ccc(NC(=O)c3ccc(NC(=O)[C@H](Cc4cn[nH]n4)NC(=O)c4ccc(NC(=O)/C(C)=C/c5ccc(O)cc5)cc4)cc3Br)c(OC)c2O)ccc(C(=O)O)c1O | resazurin |  | MIC | 130.21 | Mycobacterium luteus |  | 0.5 µg/mL |
| COc1ccc(-c2c(-c3ccc(O)cc3O)n[nH]c2C(F)(F)F)cc1OC | visual reading |  | MIC |  | Mycobacterium marinum |  | >50 µg/mL |
| COc1ccc(CCn2c(C)nn(Cc3cn(CCCCCCCCCCn4cc(Cn5nc(C)n(CCc6ccc(OC)cc6)c5=O)nn4)nn3)c2=O)cc1 | agar diffusion |  | zone |  | Mycobacterium luteus | 20 mg/mL | 0.9 mm |
| C[C@@H]1CN(c2c(F)c(N)c3c(=O)c(C(=O)O)cn(C4CC4)c3c2F)C[C@H](C)N1 |  |  | MIC | N-976 (HIV+) | Mycobacterium avium complex |  | 0.5 µg/mL |
| CO[C@@]1(NC(=O)C(C(=O)O)c2ccc(O)cc2)C(=O)N2C(C(=O)O)=C(CSc3nnnn3C)CO[C@@H]21 |  |  | MIC | 1059 | Mycobacterium fortuitum |  | >100 µg/mL |
| NCC[C@H](O)C(=O)N[C@@H]1C[C@H](N)[C@@H](O[C@H]2O[C@H](CN)[C@@H](O)[C@H](O)[C@H]2O)[C@H](O)[C@H]1O[C@H]1O[C@H](CO)[C@@H](O)[C@H](N)[C@H]1O | broth dilution |  | MIC90 |  | Mycobacterium chelonae |  | 16 µg/mL |
| CCCCCCCCCCCCCCCCC(=O)NC(CCC(=O)O)(CCC(=O)O)CCC(=O)O |  |  | MIC | EO-P-1 | Mycobacterium chelonae |  | 27 µg/mL |
| CC[C@H]1OC(=O)[C@H](C)[C@@H](O[C@H]2C[C@@](C)(OC)[C@@H](O)[C@H](C)O2)[C@H](C)[C@@H](O[C@@H]2O[C@H](C)C[C@H](N(C)C)[C@H]2O)[C@](C)(OC)C[C@@H](C)C(=O)[C@H](C)[C@@H](O)[C@]1(C)O |  |  | MIC | N-259 (HIV-) | Mycobacterium avium complex |  | 1 µg/mL |
| CCCCCc1c2c(cc(O)c1C(=O)O)OC(=O)c1c(cc(C=O)cc1C(=O)CCCC)O2 |  |  | MIC |  | Mycobacterium aurum |  | 125 µg/mL |
| CO[C@H]1/C=C/O[C@@]2(C)Oc3c(C)c(O)c4c(O)c(cc(O)c4c3C2=O)NC(=O)/C(C)=C\C=C\[C@H](C)[C@H](O)[C@@H](C)[C@@H](O)[C@@H](C)[C@H](OC(C)=O)[C@@H]1C |  |  | MIC | AAy-P-1 | Mycobacterium abscessus |  | 25 µg/mL |
| COc1ccc(CCn2c(C)nn(Cc3cn(CCCCn4cc(Cn5nc(C)n(CCc6ccc(OC)cc6)c5=O)nn4)nn3)c2=O)cc1 | agar diffusion |  | zone |  | Mycobacterium luteus | 20 mg/mL | 1.313 mm |
| CC(=O)NC[C@H]1CN(c2ccc3c(c2)OCc2nncn2-3)C(=O)O1 |  |  | MIC |  | Mycoplasma pneumoniae |  | 32 µg/mL |
| c1ccc(-c2cc3cc(Nc4ncnc5ccccc45)ccc3o2)cc1 | luminescence |  | MIC50 |  | Mycobacterium bovis BCG |  | >20 µM |
| O=[N+]([O-])c1ccc(COc2ccc(-c3n[nH]c(C(F)(F)F)c3-c3ccc(Cl)cc3)c(O)c2)cc1 | visual reading |  | MIC |  | Mycobacterium marinum |  | 50 µg/mL |
| CCCCCCCCCCCCC(CCCCCCCCCCCC)NC(=O)NC(CCC(=O)O)(CCC(=O)O)CCC(=O)O |  |  | MIC | AAy-P-1 | Mycobacterium abscessus |  | 72 µg/mL |
| COc1ccc(/C=N/n2c(C)nn(Cc3cn(CCCCCCCCn4cc(Cn5nc(C)n(/N=C/c6ccc(OC)cc6)c5=O)nn4)nn3)c2=O)cc1 | agar diffusion |  | zone |  | Mycobacterium luteus | 20 mg/mL | 0.6 mm |
| CCn1c(CNC(=O)c2c(-c3cccc(C)c3)nc3ccc(C)cn23)nc2ccccc21 | fluorescence |  | MIC50 |  | Mycobacterium ulcerans |  | >10 µg/mL |
| COc1ccc(CCn2c(C)nn(Cc3cn(CCCn4cc(Cn5nc(C)n(CCc6ccc(OC)cc6)c5=O)nn4)nn3)c2=O)cc1 | agar diffusion |  | zone |  | Mycobacterium luteus | 20 mg/mL | 1.313 mm |
| CCc1ccccc1OCCCON1C(N)=NC(N)=NC1(C)C | fluorescence |  | MIC |  | Mycobacterium bovis BCG |  | 2.8 µM |
| COC(=O)c1c(C)cc(OC(=O)c2c(C)cc(O)c(C=O)c2O)c(C)c1O |  |  | MIC |  | Mycobacterium aurum |  | 250 µg/mL |
| CO[C@@]1(NC(=O)Cc2ccccc2)C(=O)N2C(C(=O)O)=C(COC(C)=O)CSC21 |  |  | MIC | 1260 | Mycobacterium fortuitum |  | 50 µg/mL |
| NNC(=O)c1ccncc1 | fluorescence | Thymidylate synthase (thyA) overexpressing | MIC |  | Mycobacterium bovis BCG |  | 0.7 µM |
| CO[C@@]1(NC(=O)Cc2cccs2)C(=O)N2C(C(=O)O)=C(COC(N)=O)CS[C@@H]21 |  |  | MIC | 4-May | Mycobacterium fortuitum |  | 25 µg/mL |
| COc1ccc2c(Nc3ccc(Oc4ccc(OC(F)(F)F)cc4)cc3)ncnc2c1 | luminescence |  | MIC50 |  | Mycobacterium bovis BCG |  | >20 µM |
| COC(=O)NC[C@H]1CN(c2ccc3c(c2)OCc2nccn2-3)C(=O)O1 |  |  | MIC |  | Mycoplasma pneumoniae |  | 16 µg/mL |
| FC(F)(F)Oc1ccc(C2CCN(c3ccc(CNc4ncnc5sccc45)cc3)CC2)cc1 | luminescence |  | MIC50 |  | Mycobacterium bovis BCG |  | >20 µM |
| C[C@@H]1CN(c2c(F)c(N)c3c(=O)c(C(=O)O)cn(C4CC4)c3c2F)C[C@H](C)N1 | broth dilution / visual reading |  | MIC | ATCC 25275 | Mycobacterium simiae |  | 0.3 µg/mL |
| FC(F)(F)c1cccc(CCNc2ncnc3ccsc23)c1 | luminescence |  | MIC50 |  | Mycobacterium bovis BCG |  | >50 µM |
| CCCCCCCCCCCCCCCCNC(=O)NC(CCC(=O)O)(CCC(=O)O)CCC(=O)O |  |  | MIC | AAy-P-1 | Mycobacterium abscessus |  | 14 µg/mL |
| Fc1cc(Nc2ncnc3ccccc23)ccc1N1CCc2sccc2C1 | luminescence |  | MIC50 |  | Mycobacterium bovis BCG |  | >20 µM |
| O=C(NCCO)c1c(Cl)nc2ccccn12 | fluorescence |  | MIC50 |  | Mycobacterium ulcerans |  | >10 µg/mL |
| Fc1ccc(Oc2ccc(CNc3ncnc4ccsc34)cc2)cc1 | luminescence |  | MIC50 |  | Mycobacterium bovis BCG |  | >20 µM |
| CCOc1ccc(-c2n[nH]c(C(F)(F)F)c2-c2ccccc2)c(O)c1 | visual reading |  | MIC |  | Mycobacterium marinum |  | >50 µg/mL |

Repeating the final 3 entries:

compound | method | changes | read-out | strain or isolate | species | tested at | result
O=C(NCCO)c1c(Cl)nc2ccccn12 | fluorescence |  | MIC50 |  | Mycobacterium ulcerans |  | >10 µg/mL
Fc1ccc(Oc2ccc(CNc3ncnc4ccsc34)cc2)cc1 | luminescence |  | MIC50 |  | Mycobacterium bovis BCG |  | >20 µM
CCOc1ccc(-c2n[nH]c(C(F)(F)F)c2-c2ccccc2)c(O)c1 | visual reading |  | MIC |  | Mycobacterium marinum |  | >50 µg/mL

Zones are inhibition diameters on agar. An empty or dashed field is not shown. MIC50, MIC90 and the like: level of inhibition, or share of isolates inhibited. Rows are shuffled and stem from different studies.